# Experimental data: PubChem BioAssay AID652126 (The Scripps Research Institute Molecular Screening Center, 2013)
# The list shows a part of the results, in another mix than the full data. Active and inactive are the calls of the source.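 How the source made its calls: active means activation above the mean over all tested compounds plus 3 SD (cut at about 0.9% in these data); inactive means the rest.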
# System: Nuclear hormone receptor DAF-12 (Strongyloides stercoralis)
# Assay: ssDAF-12 driven luciferase reporter activation – cell-based, luminescence, HEK293, GRIP1 co-expression, lit1-tk-luc, primary screen (AID 652126);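 further: 0% = DMSO-only wells and 100% = 3 µM delta7-dafachronic acid wells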
# Conditions: HEK293 ssDAF-12/GRIP1 lit1-tk-luc reporter, at 6.8 µM, hits give high values, % of 3 µM dafachronic acid response
row,Compound,activation
1,O=C(NCC1(N2CCCCC2)CCCCC1)c1ccco1,inactive: -0.85%
2,Cn1c(=O)[nH]cc(N(CCCl)CCCl)c1=O,inactive: -1.13%
3,CN(C)c1ccc(C(=O)NCC2(N3CCCCC3)CCCCC2)cc1,inactive: -1.2%
4,Cc1ccccc1NC1(C#N)CCN(Cc2ccccc2)CC1,inactive: -0.79%
5,CC(C)(C)n1nnnc1C(c1ccnc2ccccc12)N1CCC(n2c(=O)[nH]c3ccccc32)CC1 (stereo not given),inactive: -1.24%
6,CCN1CCC(Nc2cccc(F)c2)CC1,inactive: -1.79%
7,COc1ccc(C(c2nnnn2C2CCCCC2)N2CCC(n3c(=O)[nH]c4ccccc43)CC2)cc1 (stereo not given),inactive: -1.21%
8,Cc1ccc(C(=O)NCC2(N3CCCCC3)CCCCC2)o1,inactive: -0.82%
9,Fc1ccccc1NC1CCN(Cc2ccccc2)CC1,inactive: -1.76%
10,Cc1ccc(NC2(C#N)CCN(Cc3ccccc3)CC2)cc1,inactive: -0.27%
11,CC(=O)N(c1ccccc1)C1CCNCC1,inactive: -0.86%
12,COc1cccc(C(c2nnnn2C2CCCCC2)N2CCC(n3c(=O)[nH]c4ccccc43)CC2)c1OC (stereo not given),inactive: -2%
13,CCC(c1nnnn1C1CCCCC1)N1CCC(n2c(=O)[nH]c3ccccc32)CC1 (stereo not given),inactive: -1.55%
14,O=c1[nH]c2ccccc2n1C1CCN(C(c2ccnc3ccccc23)c2nnnn2C2CCCCC2)CC1 (stereo not given),inactive: -0.81%
15,COc1cc(OC)cc(C(=O)NCC2(N3CCCCC3)CCCCC2)c1,inactive: -1.06%
16,CN1CCC(Nc2ccc(Cl)cc2)CC1,inactive: -1.4%
17,COc1cccc(C(=O)N(c2cc(C)cc(C)c2)C2CCN(C(=O)OC(C)(C)C)CC2)c1,inactive: -1%
18,COc1cccc(C(c2nnnn2C2CCCC2)N2CCC(n3c(=O)[nH]c4ccccc43)CC2)c1OC (stereo not given),inactive: -1.45%
19,COc1cc(OC)cc(C(=O)NCC2(N3CCOCC3)CCCCC2)c1,inactive: -1.34%
20,CCC(CO)(C(=O)OC1CN2CCC1CC2)c1ccccc1 (stereo not given),inactive: -0.11%
21,CC(C)(C)OC(=O)N1CCC(Nc2ccccc2)CC1,inactive: -1.17%
22,NN(c1ccccc1)C1CCN(CCc2ccccc2)CC1,inactive: -1.17%

row,Compound,activation
1,O=C(O)C1(Nc2ccccc2)CCN(Cc2ccccc2)CC1,inactive: -0.64%
2,CCCOc1ccc(C(=O)NCC2(N(C)C)CCCCC2)cc1,inactive: -0.17%
3,O=c1[nH]c2ccccc2n1C1CCN(C(c2cc3ccccc3o2)c2nnnn2C2CCCC2)CC1 (stereo not given),inactive: -1.76%
4,CCOc1ncccc1C(=O)NCC1(N2CCOCC2)CCCCC1,inactive: -1.43%
5,CN1CCC(Nc2ccc(F)c(Cl)c2)CC1,inactive: -0.69%
6,O=C(OC1CN2CCC1CC2)C1c2ccccc2C=Cc2ccccc21 (stereo not given),inactive: -1.49%
7,O=c1[nH]c2ccccc2n1C1CCN(C(c2cccs2)c2nnnn2C2CCCC2)CC1 (stereo not given),inactive: -1.3%
8,CCCCn1nnnc1C(c1cccc(OC)c1OC)N1CCC(n2c(=O)[nH]c3ccccc32)CC1 (stereo not given),inactive: -1.66%
9,COc1cccc(C(c2nnnn2C(C)(C)C)N2CCC(n3c(=O)[nH]c4ccccc43)CC2)c1OC (stereo not given),inactive: -0.64%
10,CCOC(=O)N1CCC(Nc2ccc(C)cc2)CC1,inactive: -1.62%
11,N/C(=N\O)c1c(N)no[n+]1[O-],inactive: -1.05%
12,O=c1[nH]c2ccccc2n1C1CCN(C(c2cccs2)c2nnnn2C2CCCCC2)CC1 (stereo not given),inactive: -1.07%
13,NC(=O)C1(Nc2ccccc2)CCN(Cc2ccccc2)CC1,inactive: -1.07%
14,COc1ccc(C(=O)NCC2(N3CCOCC3)CCCCC2)cc1OC,inactive: -1.34%
15,O=c1[nH]c2ccccc2n1C1CCN(C(c2ccnc3ccccc23)c2nnnn2C2CCCC2)CC1 (stereo not given),inactive: -1.07%
16,CCCCn1nnnc1C(c1ccccc1)N1CCC(n2c(=O)[nH]c3ccccc32)CC1 (stereo not given),inactive: -1.5%
17,COc1cc(C(=O)NCC2(N3CCOCC3)CCCCC2)cc(OC)c1C,inactive: -1.43%
18,O=C(NCC1(N2CCOCC2)CCCCC1)c1cc(Br)ccc1Cl,inactive: -1.43%
19,CC(C)(C)n1nnnc1C(c1cccc2ccccc12)N1CCC(n2c(=O)[nH]c3ccccc32)CC1 (stereo not given),inactive: -1.35%
20,CN(C)C1(CNC(=O)c2cccc(C#N)c2)CCCCC1,inactive: -0.6%
21,c1ccc(CN2CCC(Nc3ccccc3)CC2)cc1,inactive: -1.27%
22,C/C(N)=N\P(=O)(Oc1ccccc1)Oc1ccccc1,inactive: 0.1%

row,Compound,activation
1,Cc1cc(N(CCCl)CCCl)ccc1C=O,inactive: -0.98%
2,CCCN1CCC(Nc2cc(OC)cc(OC)c2)CC1,inactive: -0.01%
3,O=c1[nH]c2ccccc2n1C1CCN(C(c2ccccc2)c2nnnn2C2CCCC2)CC1 (stereo not given),inactive: -1.17%
4,N#Cc1ccc(C(=O)NCC2(N3CCCCC3)CCCCC2)cc1,inactive: -1.17%
5,CC(C)(C)OC(=O)N1CCC(N(C(=O)c2ccccc2)c2ccc(Cl)cc2)CC1,inactive: -1.19%
6,O=C(NCC1(N2CCOCC2)CCCCC1)c1cc(=O)[nH]c2ccccc12,inactive: -0.72%
7,COc1cc(C(=O)NCC2(N3CCCCC3)CCCCC2)ccc1OC(F)F,inactive: -0.59%
8,CCCCn1nnnc1C(c1cccc2ccccc12)N1CCC(n2c(=O)[nH]c3ccccc32)CC1 (stereo not given),inactive: -1.35%
9,CC(C)c1ccc(C(=O)NCC2(N3CCOCC3)CCCCC2)cc1,inactive: -1.02%
10,COc1ccc(NC2CCN(C(=O)OC(C)(C)C)CC2)cc1,inactive: -2.05%
11,CN1CCN(CCOC(=O)C(O)(c2ccccc2)c2ccccc2)CC1,inactive: -1.07%
12,O=C(NCC1(N2CCCCC2)CCCCC1)c1cccc(C(F)(F)F)c1,inactive: -0.28%
13,CCN1CCC(Nc2ccc(Cl)cc2)CC1,inactive: -1.42%
14,N#CC1(Nc2ccccc2)CCN(CCc2ccccc2)CC1,inactive: -1.34%
15,O=c1[nH]c2ccccc2n1C1CCN(C(c2ccccc2OC(F)(F)F)c2nnnn2C2CCCC2)CC1 (stereo not given),inactive: -0.84%
16,CSc1ccc(C(=O)NCC2(N3CCOCC3)CCCCC2)cc1,inactive: -0.78%
17,O=C(NCC1(N2CCCCC2)CCCCC1)c1cccc([N+](=O)[O-])c1,inactive: -1.05%
18,CC(C)(C)n1nnnc1C(c1ccccc1OC(F)(F)F)N1CCC(n2c(=O)[nH]c3ccccc32)CC1 (stereo not given),inactive: -1.07%
19,O=C(NCC1(N2CCCCC2)CCCCC1)c1ccc(OC(F)F)cc1,inactive: -0.71%
20,COc1ccc(C(c2nnnn2C2CCCC2)N2CCC(n3c(=O)[nH]c4ccccc43)CC2)cc1 (stereo not given),inactive: -0.89%
21,Cc1ccc(C(=O)NCC2(N(C)C)CCCCC2)o1,inactive: -1.19%
22,CCCOc1ccc(C(=O)NCC2(N(C)C)CCCCC2)cc1OC,inactive: -1.13%

row,Compound,activation
1,O=C(NCC1(N2CCCCC2)CCCCC1)c1cncc(Br)c1,inactive: 0.88%
2,CN1CCC(Nc2cccc(F)c2)CC1,inactive: -0.77%
3,COc1cc(OC)c(C(=O)NCC2(N(C)C)CCCCC2)cc1OC,inactive: -1.12%
4,CCC(c1nnnn1C(C)(C)C)N1CCC(n2c(=O)[nH]c3ccccc32)CC1 (stereo not given),inactive: -1.72%
5,O=C(NCC1(N2CCOCC2)CCCCC1)c1cc(F)c(F)cc1Cl,inactive: -1.13%
6,CCCCn1nnnc1C(c1ccnc2ccccc12)N1CCC(n2c(=O)[nH]c3ccccc32)CC1 (stereo not given),inactive: -1.13%
7,CC(C)c1ccc(NC2CCN(C(=O)OC(C)(C)C)CC2)cc1,inactive: -1.44%
8,COC(=O)C1(Nc2ccccc2)CCN(Cc2ccccc2)CC1,inactive: -1.31%
9,COc1ccc(CN(CCCl)CCCl)cc1Cl,inactive: -0.72%
10,CN(C)c1cccc(C(=O)NCC2(N3CCCCC3)CCCCC2)c1,inactive: -1.79%
11,O=c1[nH]c2ccccc2n1C1CCN(C(c2cc3ccccc3o2)c2nnnn2C2CCCCC2)CC1 (stereo not given),inactive: -1.11%
12,O=C(OC1CN2CCC1CC2)C1c2ccccc2Oc2ccccc21 (stereo not given),inactive: -1.43%
13,N#CC1(Nc2ccccc2)CCN(Cc2ccccc2)CC1,inactive: -1.43%
14,O=C(NCC1(N2CCCCC2)CCCCC1)c1ccc(Cl)s1,inactive: -0.84%
15,COc1ccc(Cl)cc1C(=O)NCC1(N2CCOCC2)CCCCC1,inactive: -0.87%
16,CCOC(=O)N1CCC(Nc2ccc(OC)cc2)CC1,inactive: -1.17%
17,CCCCn1nnnc1C(c1ccc(OC)cc1)N1CCC(n2c(=O)[nH]c3ccccc32)CC1 (stereo not given),inactive: -2.02%
18,O=c1[nH]c2ccccc2n1C1CCN(C(c2ccccc2OC(F)(F)F)c2nnnn2C2CCCCC2)CC1 (stereo not given),inactive: -0.32%
19,O=C(NCC1(N2CCCCC2)CCCCC1)c1ccc(Cl)nc1,inactive: -0.95%
20,Cc1cc(C)cc(N(C(=O)c2ccccc2)C2CCN(C(=O)OC(C)(C)C)CC2)c1,inactive: -1.58%
21,O=C(NCC1(N2CCOCC2)CCCCC1)c1cc2ccccc2o1,inactive: -0.32%
22,CSc1ccccc1C(=O)NCC1(N2CCCCC2)CCCCC1,inactive: -0.38%

row,Compound,activation
1,Cc1cccc(NC2(C#N)CCN(Cc3ccccc3)CC2)c1,inactive: -1.4%
2,COc1ccc(C(=O)NCC2(N3CCCCC3)CCCCC2)cc1,inactive: -0.87%
3,CCC(c1nnnn1C1CCCC1)N1CCC(n2c(=O)[nH]c3ccccc32)CC1 (stereo not given),inactive: -1.75%
4,CC(C)(C)OC(=O)N1CCC(N(C(=O)c2ccccc2)c2ccc(F)cc2)CC1,inactive: -1.13%
5,COc1ccc(C(=O)NCC2(N3CCCCC3)CCCCC2)c(OC)c1OC,inactive: -1.86%
6,O=C(NCC1(N2CCCCC2)CCCCC1)c1ccc(=O)[nH]c1,inactive: -0.41%
7,CCCCn1nnnc1C(c1cccs1)N1CCC(n2c(=O)[nH]c3ccccc32)CC1 (stereo not given),inactive: -1.99%
8,O=C(NCC1(N2CCCCC2)CCCCC1)c1cccs1,inactive: -0.31%
9,CCCCn1nnnc1C(CC)N1CCC(n2c(=O)[nH]c3ccccc32)CC1 (stereo not given),inactive: -1.18%
10,COc1cc(C(=O)NCC2(N(C)C)CCCCC2)ccc1OC(F)F,inactive: -1.09%
11,CCOC(=O)N1CCC(Nc2cccc(C)c2)CC1,inactive: -1.42%
12,O=c1[nH]c2ccccc2n1C1CCN(C(c2cccc3ccccc23)c2nnnn2C2CCCC2)CC1 (stereo not given),inactive: -1.2%
13,O=c1[nH]c2ccccc2n1C1CCN(C(c2ccccc2)c2nnnn2C2CCCCC2)CC1 (stereo not given),inactive: -1.43%
14,O=C(NCC1(N2CCCCC2)CCCCC1)c1ccc(F)cc1,inactive: -0.98%
15,CCCCOc1ccc(C(=O)NCC2(N3CCOCC3)CCCCC2)cc1,inactive: -0.92%
16,O=P1(N(CCCl)CCCl)SCCCS1,inactive: -0.11%
17,CCCCn1nnnc1C(c1cc2ccccc2o1)N1CCC(n2c(=O)[nH]c3ccccc32)CC1 (stereo not given),inactive: -1.71%
18,CCOC(=O)N1CCC(Nc2ccc(F)cc2)CC1,inactive: -1.43%
19,COc1ccc(NC2CCN(CCc3ccccc3)CC2)c(OC)c1,inactive: -1.32%
20,CC(C)(C)n1nnnc1C(c1ccccc1)N1CCC(n2c(=O)[nH]c3ccccc32)CC1 (stereo not given),inactive: -0.4%
21,O=C1CCN(Cc2ccccc2)CC1,inactive: -1.68%
22,CCOc1ccc(C)cc1CN(CCCl)CCCl,inactive: -1.16%
